Anti-infective test results gathered from many reports (values: NIAID ChemDB through PubChem).

Shared fields: enzyme or target tests; protein: CCR5; endpoint: IC50

ICn is the concentration giving n% inhibition. An empty or dashed field is not shown. Lines come from different laboratories, so protocols vary.

structure | changes | read by | result
CCN(C(=O)Cc1ccc(S(C)(=O)=O)cc1)C1CCN(CC[C@H](c2ccc(S(C)(=O)=O)cc2)c2c(F)cccc2F)CC1 |  | radiometric | 0.56 µM
CN(C)C(=O)c1ccccc1C(=O)N1CCC(C)(N2CCC(N(c3ccccc3)c3ccccc3)CC2)CC1 |  | radiometric | >1 µM
CC[C@H](C)[C@H](C(=O)O)N1C[C@H](CN2CCC(c3cc(Cc4cccc(CN)c4)nn3CC)CC2)[C@@H](c2cccc(F)c2)C1 |  | radiometric | 0.0005 µM
c1ccc(CCCC2CCN(CC3[C@@H](c4ccccc4)CN4OC5(CCCCC5)C[C@@H]34)CC2)cc1 |  |  | <1 µM
CCN(C(=O)OCc1ccccc1)C1CCN(C(C)CC(CN(C)S(=O)(=O)c2ccccc2)c2ccccc2)CC1 |  | radioligand binding / binding | 0.053 µM
CN(CC[C@H](CN(C)S(=O)(=O)c1ccccc1)c1cccc(Cl)c1)Cc1ccccc1 |  | radioligand binding / binding | >10 µM
CN(C[C@@H](CCN1CCC2(CC1)CS(=O)c1ccccc12)c1cccc(Cl)c1)S(=O)(=O)c1ccccc1 |  | radioligand binding / binding | 0.01 µM
CCN(C(=O)Cc1ccc(S(C)(=O)=O)cc1)C1CCN(CC[C@H](c2ccc(S(C)(=O)=O)cc2)c2cc(F)c(F)c(F)c2)CC1 |  | radiometric | 0.025 µM
Cc1cccc(C)c1C(=O)N1CCC(N2CCN([C@@H](C)c3ccc(S(=O)(=O)c4ccc5c(c4)OCO5)cc3)[C@@H](C)C2)CC1 |  | binding / radiometric | 0.05 µM
CN1CC(C(=O)N(CCCN2CCC(C(=O)c3ccc(F)cc3)CC2)c2ccccc2)CC1=O |  | radiometric | 1.9 µM
CN(CC(CCN1CCC(c2ccccc2)CC1)c1cccc(C(=O)O)c1)S(=O)(=O)c1ccccc1 |  | radioligand binding / binding | <10 µM
COC(=O)N(C(C)C)C1CCN(CCC(CN(C)S(=O)(=O)c2ccccc2)c2ccccc2)CC1 |  | radioligand binding / binding | 0.2 µM
CCO/N=C(\c1ccc(Br)cc1)C1CCN(C2(C)CCN(C(=O)c3c(C)cc[n+]([O-])c3C)CC2)CC1 |  | radiometric | 0.01 µM
C/C=C(\C)[C@@H]1C=C[C@@H]2C[C@H](C)C[C@H](C)[C@H]2[C@@H]1/C(O)=C1/C(=O)N[C@H](C[C@@](C)(O)C(=O)O)C1=O |  | radiometric | 0.079 µM
CCN(C(=O)Cc1ccc(S(C)(=O)=O)cc1)C1CCN(CC[C@H](c2ccc(S(C)(=O)=O)cc2)c2cccc(F)c2)CC1 |  | radiometric | 0.00022 µM
CC(C)C(=O)N1C[C@H](CN2CCC(c3ccccc3)CC2)[C@@H](c2ccccc2)C1 | CCR5-E283A | radiometric | >10 µM
C[C@H](NC(=O)[C@H](CCCN=C(N)N)NC(=O)c1ccc(CNCc2ccccn2)cc1)c1cccc2ccccc12 |  | radiometric | >10 µM
CN(C[C@@H](CCN1CCC(O)(CCCc2ccccc2)CC1)c1cccc(Cl)c1)S(=O)(=O)c1ccccc1 |  | radioligand binding / binding | 0.1 µM
CN(C[C@@H](CCN1CCC(c2ccccc2)CC1)c1cccc(Cl)c1)S(=O)(=O)c1ccccc1 |  | radioligand binding / binding | 0.038 µM
CCN(C(=O)Cc1ccc(S(C)(=O)=O)cc1)C1CCN(CC[C@H](c2ccc(S(C)(=O)=O)cc2)c2cc(F)cc(Cl)c2)CC1 |  | radiometric | 0.0011 µM
CN(CC(CCCN1CCC2(CC1)CS(=O)c1ccccc12)c1cccc(Cl)c1)S(=O)(=O)c1ccccc1 |  | radioligand binding / binding | 1.1 µM
CCN(C(=O)Cc1ccc(S(C)(=O)=O)cc1)C1CCN(CC[C@H](c2ccc(S(C)(=O)=O)cc2)c2cccc(F)c2F)CC1 |  | radiometric | 0.02 µM
CN(C[C@@H](CCN1CCc2ccccc2C1)c1cccc(Cl)c1)S(=O)(=O)c1ccccc1 |  | radioligand binding / binding | <10 µM
CCN(C(=O)Cc1ccc(S(C)(=O)=O)cc1)C1CCN(CC[C@H](c2ccc(S(C)(=O)=O)cc2)c2cccc(C(C)C)c2)CC1 |  | radiometric | 0.11 µM
CN(C[C@@H](CCN1CCC2(CC1)CS(=O)c1ccccc12)c1ccc(Cl)cc1)S(=O)(=O)c1ccccc1 |  | radioligand binding / binding | 0.24 µM
C=CCN(C(=O)OCc1ccc([N+](=O)[O-])cc1)C1CCN(CC[C@](C)(CN(C)S(=O)(=O)c2ccccc2)c2ccccc2)CC1 | CCR5-Y251A | radiometric | 0.018 µM
CN(C[C@@H](CCN1CCC2(CC1)C(=O)NCC2c1ccccc1)c1cccc(Cl)c1)S(=O)(=O)c1ccccc1 |  | radioligand binding / binding | 0.3 µM
CN(CC(CCN1CCC2(CC1)CS(=O)(=O)c1ccccc12)C1CCCCC1)S(=O)(=O)c1ccccc1 |  | radioligand binding / binding | <10 µM
Cc1cc(-c2ccccc2)n(C2CCN(C[C@H]3CN([C@@H](C(=O)O)C4CCCCC4)C[C@@H]3c3ccccc3)CC2)n1 |  | radiometric | <2 µM
CN(C[C@@H](CCN1CCC(c2ccc(Cl)cc2)CC1)c1cccc(Cl)c1)S(=O)(=O)c1ccccc1 |  | radioligand binding / binding | 0.1 µM
CN(C[C@@H](CCN1CCC2(CC1)CSc1ccccc12)c1ccc(Cl)cc1)S(=O)(=O)c1ccccc1 |  | radioligand binding / binding | 4 µM

For reference, 3 entries again:

structure	changes	read by	result
COC(=O)N(C(C)C)C1CCN(CCC(CN(C)S(=O)(=O)c2ccccc2)c2ccccc2)CC1		radioligand binding / binding	0.2 µM
CN(C[C@@H](CCN1CCC(c2ccccc2)CC1)c1cccc(Cl)c1)S(=O)(=O)c1ccccc1		radioligand binding / binding	0.038 µM
CCN(C(=O)Cc1ccc(S(C)(=O)=O)cc1)C1CCN(CC[C@H](c2ccc(S(C)(=O)=O)cc2)c2cc(F)c(F)c(F)c2)CC1		radiometric	0.025 µM